Compound potency records, mixed from different reports. Data source: NIAID ChemDB in PubChem.

Shared fields: tests on isolated targets; species: Hepatitis C virus; target: Nonstructural protein 3 protease

An empty or dashed field is not shown. Rows are shuffled and stem from different studies. ICn: concentration for n% inhibition.

structure | read by | measure | strain or isolate | result
O=C(O)C[C@@H]1C(=O)O[C@H]2[C@@H]3OC(=O)c4cc(O)c(O)c(O)c4-c4c(cc(O)c(O)c4O)C(=O)OC[C@H]2O[C@@H](OC(=O)c2cc(O)c(O)c(O)c2)[C@@H]3OC(=O)c2cc(O)c(O)c3c2[C@H]1[C@H](O)C(=O)O3 | fluorescence | IC50 |  | 5.2 µM
COc1ccc2c(O[C@@H]3C[C@H]4C(=O)C[C@]5(P(=O)(O)Cc6c(F)cccc6F)C[C@H]5CCCCCCC[C@H](CC(=O)OC5CCCC5)C(=O)N4C3)cc(-c3csc(NC(C)C)n3)nc2c1Cl | fluorescence | Ki | Con1 (gt 1b) | 0.000089 µM
O=C(OC[C@H]1O[C@@H](OC(=O)c2cc(O)c(O)c(O)c2)[C@H](OC(=O)c2cc(O)c(O)c(O)c2)[C@@H](OC(=O)c2cc(O)c(O)c(O)c2)[C@@H]1OC(=O)c1cc(O)c(O)c(O)c1)c1cc(O)c(O)c(O)c1 | fluorescence | IC50 |  | 10.6 µM
CC[C@@H]1C(=O)N(S(C)(=O)=O)[C@H]2CCN(C(=O)[C@@H](NC(=O)OC(C)(C)C)C(C)C)[C@H]12 |  | IC50 |  | 30 µM
O=C(O)c1cc(O)c(O)c(O)c1 | fluorescence | IC50 |  | 382.4 µM
COc1cc(/C=N/Nc2cc(C)nc3c(OC)cccc23)cc(OC)c1OC |  | IC50 |  | <100 µg/mL
CC(C)[C@H](NC(=O)OC(C)(C)C)C(=O)N1CC[C@H]2[C@H]1[C@H](C)C(=O)N2C(=O)C1CC1 |  | IC50 |  | 97 µM
CCCCCCCCCCCCCC1=C(O)C(=O)C=C(O)C1=O |  | IC50 |  | 7 µM
CC(C)[C@H](NC(=O)OC(C)(C)C)C(=O)N1CC[C@H]2[C@H]1C1(CCC1)C(=O)N2S(C)(=O)=O |  | IC50 |  | 4.4 µM
O=C(O[C@@H]1O[C@@H]2COC(=O)c3cc(O)c(O)c(O)c3-c3c(cc(O)c(O)c3O)C(=O)O[C@H]([C@H]1O)[C@@H]2O)c1cc(O)c(O)c(O)c1 | fluorescence | IC50 |  | 31.5 µM
CC(C)[C@H](NC(=O)OC(C)(C)C)C(=O)N1CC[C@H]2[C@H]1C1(CCC1)C(=O)N2C(=O)C1CC1 |  | IC50 |  | 0.51 µM
CC(C)[C@H](NC(=O)OC(C)(C)C)C(=O)N1CC[C@H]2[C@H]1C(C)(C)C(=O)N2S(C)(=O)=O |  | IC50 |  | 34 µM
CCCC(NC(=O)[C@@H]1C2CCCC2CN1C(=O)[C@@H](NC(=O)[C@@H](NC(=O)c1cnccn1)[C@@H](C)CC)C(C)(C)C)C(=O)C(=O)NC1CC1 |  | Ki |  | 0.089 µM
CC1O[C@@H](Oc2c(-c3ccc(O)c(O)c3)oc3cc(O)cc(O)c3c2=O)[C@H](O)[C@H](O)[C@H]1C |  | IC50 |  | >100 µM
CC(C)[C@H](NC(=O)OC(C)(C)C)C(=O)N1CC[C@H]2[C@H]1C(C1CCC1)C(=O)N2C(=O)C1CC1 |  | IC50 |  | 0.51 µM

The first 2 rows once more:

structure,read by,measure,strain or isolate,result
O=C(O)C[C@@H]1C(=O)O[C@H]2[C@@H]3OC(=O)c4cc(O)c(O)c(O)c4-c4c(cc(O)c(O)c4O)C(=O)OC[C@H]2O[C@@H](OC(=O)c2cc(O)c(O)c(O)c2)[C@@H]3OC(=O)c2cc(O)c(O)c3c2[C@H]1[C@H](O)C(=O)O3,fluorescence,IC50,,5.2 µM
COc1ccc2c(O[C@@H]3C[C@H]4C(=O)C[C@]5(P(=O)(O)Cc6c(F)cccc6F)C[C@H]5CCCCCCC[C@H](CC(=O)OC5CCCC5)C(=O)N4C3)cc(-c3csc(NC(C)C)n3)nc2c1Cl,fluorescence,Ki,Con1 (gt 1b),0.000089 µM